The text below walks through data of patent US9119853B2, “Sanglifehrin based compounds” (priority 2010, dated 2015).

In this assay the test system is HCV genotype 1b I389luc-ubi-neo/NS3-3'/5.1 replicon in Huh5.2 cells. The assay is described as follows: In vitro replicon assay for HCV antiviral activity (luciferase). The note with it: Huh5.2 replicon. The class given is cell-based, Hepatitis C Virus.
Consider `CC(=O)CC[C@H]1C(=O)N[C@@H](C(C)C)C(=O)N[C@@H](Cc2cccc(O)c2)C(=O)N2CCCC(N2)C(=O)O[C@H](/C(C)=C/C=C/C(=O)N(CC(C)C)CC(C)C)C/C=C/C=C/[C@H](O)[C@H](C)[C@H]1O` (stereo partly drawn) [compound 32], for which the Selectivity index (CC50/EC50) amounted to 6.9.

Turning to `C=CCNC(=O)/C=C/C=C(\C)[C@@H]1C/C=C/C=C/[C@H](O)[C@H](C)[C@@H](O)[C@@H](CCC(C)=O)C(=O)N[C@@H](C(C)C)C(=O)N[C@@H](Cc2cccc(O)c2)C(=O)N2CCCC(N2)C(=O)O1` (stereo partly drawn) [compound 25], the Selectivity index (CC50/EC50) came out at 30. For the compound `CC(=O)CC[C@H]1C(=O)N[C@@H](C(C)C)C(=O)N[C@@H](Cc2cccc(O)c2)C(=O)N2CCCC(N2)C(=O)O[C@H](/C(C)=C/C=C/C(=O)Nc2ccccn2)C/C=C/C=C/[C@H](O)[C@H](C)[C@H]1O` (stereo partly drawn) [compound 48], the Selectivity index (CC50/EC50) was determined as 238.
